Km data for two substances are collected here from publication PMC10694151, “Regulation of the cell division hydrolase RipC by the FtsEX system in Mycobacterium tuberculosis” (Nature Communications, 2023).

For the data set, the system named is Nc1ncnc2c1ncn2[C@@H]1O[C@H](COP(=O)(O)OP(=O)(O)OP(=O)(O)O)[C@@H](O)[C@H]1O. In words: purified protein. The following applies: pH 8.0; 37.0 °C.

The Km is the substrate concentration at which the rate is half of its maximum. For the substance “MtbFtsEX/RipC (Mycobacterium tuberculosis H37Rv)”, the Km came to 160 ± 40 µM.

Take “MtbFtsEX (Mycobacterium tuberculosis H37Rv)”: the Km was determined as 200 ± 40 µM.
